Reference: PubChem BioAssay AID1259414 (Drosophila RNAi Screening Center, 2018)
Screen: 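Genome-wide screen for host control of endosymbiont load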 (primary screen). Cells: Drosophila JW18 cells infected with Wolbachia. Knock-down reagent: long dsRNA against Drosophila genes, 0.25 µg dsRNA per well of a 384-well plate. Time to read-out: 5 days. Challenge: cells persistently infected with Wolbachia before knock-down; no added drug. Measured: 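Imaged fluorescence in situ signal for Wolbachia 23S rRNA per DAPI-counted host cell, given as a robust z-score within each plate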. Scale: Wolbachia per cell robust z: higher = more Wolbachia per host cell than the plate typical. Active means: 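Active if absolute robust z reaches 1.5 in two or more of three replicates, leaving out multi- or no-target dsRNAs, genes unexpressed in JW18 and A1 wells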.
The deposit covers about 24,000 reagents; below is a random part of those that have a named target and a result. Over the whole deposit, about 1,210 (5%) were called active. 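Inactive calls also include excluded dsRNAs with several or no targets, genes unexpressed in JW18, and well A1, regardless of score.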 Unmarked entries are inactive. Names joined by + are all predicted targets of the reagent.

{"Target gene": "CG43394", "dsRNA": "DRSC01013", "Wolbachia per cell robust z, rep 1": -0.806, "Wolbachia per cell robust z, rep 2": -0.553, "Wolbachia per cell robust z, rep 3": -1.89}
{"Target gene": "CG43394", "dsRNA": "DRSC21835", "Wolbachia per cell robust z, rep 1": "-4.17 (active)", "Wolbachia per cell robust z, rep 2": -3.34, "Wolbachia per cell robust z, rep 3": -2.68}
{"Target gene": "CG43394", "dsRNA": "DRSC28255", "Wolbachia per cell robust z, rep 1": 0.978, "Wolbachia per cell robust z, rep 2": -0.64, "Wolbachia per cell robust z, rep 3": -0.897}
{"Target gene": "CG13445", "dsRNA": "DRSC09992", "Wolbachia per cell robust z, rep 1": -2.34, "Wolbachia per cell robust z, rep 2": -0.498, "Wolbachia per cell robust z, rep 3": -0.666}
{"Target gene": "CG13445", "dsRNA": "DRSC25076", "Wolbachia per cell robust z, rep 1": -0.442, "Wolbachia per cell robust z, rep 2": -0.449, "Wolbachia per cell robust z, rep 3": 0.594}
{"Target gene": "CG10597", "dsRNA": "DRSC19357", "Wolbachia per cell robust z, rep 1": -3.7, "Wolbachia per cell robust z, rep 2": -1.85, "Wolbachia per cell robust z, rep 3": -4.68}
{"Target gene": "CG10597", "dsRNA": "DRSC25101", "Wolbachia per cell robust z, rep 1": -10.2, "Wolbachia per cell robust z, rep 2": 1.14, "Wolbachia per cell robust z, rep 3": -0.601}
{"Target gene": "CG31036", "dsRNA": "DRSC15055", "Wolbachia per cell robust z, rep 1": 0.934, "Wolbachia per cell robust z, rep 2": 0.852, "Wolbachia per cell robust z, rep 3": 0.337}
{"Target gene": "CG31036", "dsRNA": "DRSC15057", "Wolbachia per cell robust z, rep 1": -4.87, "Wolbachia per cell robust z, rep 2": -3.32, "Wolbachia per cell robust z, rep 3": -3.82}
{"Target gene": "Klf15 (Kruppel-like factor 15)", "dsRNA": "DRSC17742", "Wolbachia per cell robust z, rep 1": -0.021, "Wolbachia per cell robust z, rep 2": -1.13, "Wolbachia per cell robust z, rep 3": -2.28}
{"Target gene": "CG45071 + Ctps", "dsRNA": "DRSC09342", "Wolbachia per cell robust z, rep 1": -1.2, "Wolbachia per cell robust z, rep 2": -0.232, "Wolbachia per cell robust z, rep 3": -2.05}
{"Target gene": "CG45071 + Ctps", "dsRNA": "DRSC10729", "Wolbachia per cell robust z, rep 1": 1.01, "Wolbachia per cell robust z, rep 2": 0.893, "Wolbachia per cell robust z, rep 3": 1.24}
{"Target gene": "Dcp-1 (Death caspase-1)", "dsRNA": "DRSC04609", "Wolbachia per cell robust z, rep 1": 0.259, "Wolbachia per cell robust z, rep 2": -0.73, "Wolbachia per cell robust z, rep 3": -0.0739}
{"Target gene": "CG9649", "dsRNA": "DRSC16534", "Wolbachia per cell robust z, rep 1": -0.652, "Wolbachia per cell robust z, rep 2": -0.297, "Wolbachia per cell robust z, rep 3": -2.13}
{"Target gene": "CG9649", "dsRNA": "DRSC23552", "Wolbachia per cell robust z, rep 1": 0.91, "Wolbachia per cell robust z, rep 2": -0.897, "Wolbachia per cell robust z, rep 3": 0.386}

Already shown: entries from further up.
{"Target gene": "Dcp-1 (Death caspase-1)", "dsRNA": "DRSC04609", "Wolbachia per cell robust z, rep 1": 0.259, "Wolbachia per cell robust z, rep 2": -0.73, "Wolbachia per cell robust z, rep 3": -0.0739}
{"Target gene": "CG9649", "dsRNA": "DRSC16534", "Wolbachia per cell robust z, rep 1": -0.652, "Wolbachia per cell robust z, rep 2": -0.297, "Wolbachia per cell robust z, rep 3": -2.13}
{"Target gene": "CG9649", "dsRNA": "DRSC23552", "Wolbachia per cell robust z, rep 1": 0.91, "Wolbachia per cell robust z, rep 2": -0.897, "Wolbachia per cell robust z, rep 3": 0.386}

The results go on:
{"Target gene": "lncRNA:CR43132 (long non-coding RNA:CR43132)", "dsRNA": "DRSC19484", "Wolbachia per cell robust z, rep 1": -3.71, "Wolbachia per cell robust z, rep 2": -0.422, "Wolbachia per cell robust z, rep 3": -0.739}
{"Target gene": "Acsx2 (Acyl-CoA synthetase X2)", "dsRNA": "DRSC14308", "Wolbachia per cell robust z, rep 1": -0.437, "Wolbachia per cell robust z, rep 2": 0.0381, "Wolbachia per cell robust z, rep 3": 0.384}
{"Target gene": "CG10927", "dsRNA": "DRSC06014", "Wolbachia per cell robust z, rep 1": -0.027, "Wolbachia per cell robust z, rep 2": -0.801, "Wolbachia per cell robust z, rep 3": -1.09}
{"Target gene": "CG10927", "dsRNA": "DRSC29800", "Wolbachia per cell robust z, rep 1": -0.1, "Wolbachia per cell robust z, rep 2": 0.266, "Wolbachia per cell robust z, rep 3": 0.434}
{"Target gene": "KLHL18 (Kelch like family member 18)", "dsRNA": "DRSC15496", "Wolbachia per cell robust z, rep 1": 1.25, "Wolbachia per cell robust z, rep 2": -7.47, "Wolbachia per cell robust z, rep 3": 0.985}
{"Target gene": "KLHL18 (Kelch like family member 18)", "dsRNA": "DRSC26629", "Wolbachia per cell robust z, rep 1": -1.27, "Wolbachia per cell robust z, rep 2": -0.636, "Wolbachia per cell robust z, rep 3": -0.0935}
{"Target gene": "CG34029", "dsRNA": "DRSC38893", "Wolbachia per cell robust z, rep 1": 1.68, "Wolbachia per cell robust z, rep 2": 0.549, "Wolbachia per cell robust z, rep 3": 0.636}
{"Target gene": "Pld3 (Phospholipase D family member 3)", "dsRNA": "DRSC03167", "Wolbachia per cell robust z, rep 1": -0.592, "Wolbachia per cell robust z, rep 2": 0.477, "Wolbachia per cell robust z, rep 3": -2.44}
{"Target gene": "CG32187", "dsRNA": "DRSC10521", "Wolbachia per cell robust z, rep 1": 0.838, "Wolbachia per cell robust z, rep 2": 1.06, "Wolbachia per cell robust z, rep 3": 0.854}
